Construct, isoform or probe ends are uncertain for at least one entry.
Test system: Tal7 (His-Tal7) (Xanthomonas oryzae pv. oryzicola RS105)
Test: EMSA
Settings: unlabeled self-competition 5x, 20x, 100x; recombinant protein; protein details: N-terminal His (pET30a); label: 3' biotin

Sequence	binding result
AGATAAAAGCGAAACCCTCCCTCCCCT (double strand) [12g42970A]	binds
GTATACAAAGAGAACGCATCCCCCCAT (double strand) [09g29100A]	binds

From paper PMC5505973
